Laboratory results reported in article PMC13068334, “Host range and zoonotic potential linked to P-like fimbrial (PLF) adhesin specificity in avian pathogenic Escherichia coli” (PLOS Pathogens, 2026).

System: T1, PlfG class II (PlfG II, PL fimbrial adhesin of APEC strain QT598)
T1 construct: adhesin not purified
Experiment: hemagglutination inhibition, microtiter
Assay type: cell-based, Escherichia coli
Details: PL-fimbriated bacteria (QT5726 / QT598); turkey and human O+ erythrocytes; PBS; on ice 30 min; anomer not specified

Row | Structure (SMILES) | minimal HA inhibition concentration [mM]
1 | OC[C@H]1OC(O)[C@H](O)[C@@H](O)[C@H]1O (stereo partly drawn) [D-galactose] | 15
2 | C[C@@H]1OC(O)[C@@H](O)[C@H](O)[C@@H]1O (stereo partly drawn) [L-fucose] | 15
